System: SKOV3 cells
Assay: Cellular specific binding
Format: cell-based, human
Settings: 500-fold molar excess of antibody

trastuzumab: HER2-specific antibody
Specific binding of ^99mTc-tricine-HYNIC-SSS-GE11 in SKOV3 cells after pre-incubation with antibody: decreased significantly

— PMC5414288, “^99mTc-radiolabeled GE11-modified peptide for ovarian tumor targeting” (DARU Journal of Pharmaceutical Sciences, 2017)
